Laboratory results from patent US11007274B2, “Compounds for medicinal applications” (Ausvir Therapeutics Pty LTD, priority 2015, dated 2021).

What was measured:
A/Solomon Island/3/06 = assay: microbe, parasite or virus in culture; format: cell-based; conditions: unidentified influenza virus; Table 8; means of at least three determinations
A/Sydney/250/99 = assay: microbe, parasite or virus in culture; format: cell-based; conditions: unidentified influenza virus; Table 8; means of at least three determinations
A/Perth/261/2009 = assay: microbe, parasite or virus in culture; format: cell-based; conditions: unidentified influenza virus; Table 8; means of at least three determinations
A/Victoria/170/2012 = assay: microbe, parasite or virus in culture; format: cell-based; conditions: unidentified influenza virus; Table 8; means of at least three determinations
A/Mississippi/03/01 WT = assay: microbe, parasite or virus in culture; format: cell-based; conditions: unidentified influenza virus, read-out: EC50 A/Mississippi/03/01 WT
[1] = test system: A/California/04/2009 (H1N1); conditions: mouse, in vivo
A/Duck/MN/1525/81 (H5N1) = conditions: mouse, in vivo
A/Sydney/5/97 = assay: microbe, parasite or virus in culture; format: cell-based; conditions: unidentified influenza virus; Table 8; means of at least three determinations
A/Victoria/503/06 = assay: microbe, parasite or virus in culture; format: cell-based; conditions: unidentified influenza virus; Table 8; means of at least three determinations
B/Sichuan/379/99 (FluB) = conditions: mouse, in vivo
B/Townsville/2/2011 = assay: microbe, parasite or virus in culture; format: cell-based; conditions: unidentified influenza virus; Table 8; means of at least three determinations
A/Townsville/74/2011 = assay: microbe, parasite or virus in culture; format: cell-based; conditions: unidentified influenza virus; Table 8; means of at least three determinations
[2] = test system: influenza A/PR/8 (H1N1) virus (500 pfu/mouse); conditions: in vivo
[3] = test system: influenza A/PR/8 (H1N1) virus (500 pfu/mouse); conditions: in vivo; remark: listed apart in the source
Duck/MN/1525/81 = format: cell-based; conditions: Table 7

For CC(=O)N[C@H]1[C@H]([C@H](OC(=O)NCCCCCCCCCNC(=O)c2cc(C(=O)NCCCCCCCCCNC(=O)O[C@@H]([C@@H]3OC(C(=O)O)=C[C@H](NC(=N)N)[C@H]3NC(C)=O)[C@H](O)CO)c(C(=O)N[C@H](CC(=O)NCS(=O)(=O)O)C(=O)NCS(=O)(=O)O)cc2C(=O)N[C@H](CC(=O)NCS(=O)(=O)O)C(=O)NCS(=O)(=O)O)[C@H](O)CO)OC(C(=O)O)=C[C@@H]1NC(=N)N [MD185, PK2PYR(Zn)2[(D-Asp)(NHCH2SO3)2]2], the EC50 (A/Solomon Island/3/06) was 290 pM, the EC50 (A/Sydney/250/99) was 290 pM and the EC50 (A/Perth/261/2009) was 490 pM. The EC50 (A/Victoria/170/2012) was 2700 pM, the EC50 (A/Mississippi/03/01 WT) was 890 pM and the Mice survivors/total [1] was 10/10 and 9/10 and 4/10. The Mice survivors/total (A/Duck/MN/1525/81 (H5N1)) was 10/10 and 8/10 and 7/10, the EC50 (A/Sydney/5/97) was 2700 pM and the EC50 (A/Victoria/503/06) was 6500 pM. The Mice survivors/total (B/Sichuan/379/99 (FluB)) was 9/10 and 8/10, the EC50 (B/Townsville/2/2011) was 1700 pM and the EC50 (A/Townsville/74/2011) was 740 pM. The Survivors/Total [2] was 5/5, the “Mean day of death” value [3] was 7.3 days and 7.25 days and 7.5 days and the Mice survivors/total [3] was 5/5 and 4/5.

With CC(=O)N[C@H]1[C@H]([C@H](OC(=O)NCCCCCCCCNC(=O)CC(CC(=O)N[C@H](CS(=O)(=O)O)C(=O)N[C@H](CS(=O)(=O)O)C(=O)N[C@H](CS(=O)(=O)O)C(=O)O)C(=O)NCCCCCCCCNC(=O)O[C@@H]([C@@H]2OC(C(=O)O)=C[C@H](N=C(N)N)[C@H]2NC(C)=O)[C@H](O)CO)[C@H](O)CO)OC(C(=O)O)=C[C@@H]1N=C(N)N (stereo partly drawn) [MD343, PK2 TCA(Z0)2-[D-Cya]3-OH] the Mice survivors/total [3] was 5/5 and 4/5.

For CC(=O)N[C@H]1[C@H]([C@H](OC(=O)NCCCCNC(=O)[C@@H]2C[C@H](C(=O)NCCCCNC(=O)O[C@@H]([C@@H]3OC(C(=O)O)=C[C@H](N=C(N)N)[C@H]3NC(C)=O)[C@H](O)CO)C[C@H](C(=O)N[C@@H](CC(=O)O)C(=O)O)C2)[C@H](O)CO)OC(C(=O)O)=C[C@@H]1N=C(N)N [MD206, CHTCA(Zb)2-L-Asp], the “EC50 Duck/MN/1525/81” value (Duck/MN/1525/81) was 0.7 ng/mL (≈ 0.589 nM).

In the case of CC(=O)N[C@H]1[C@H]([C@H](OC(=O)NCCCCCCNC(=O)c2cc(C(=O)O)c(C(=O)NCCCCCCNC(=O)O[C@@H]([C@@H]3OC(C(=O)O)=C[C@H](N=C(N)N)[C@H]3NC(C)=O)[C@H](O)CO)cc2C(=O)O)[C@H](O)CO)OC(C(=O)O)=C[C@@H]1N=C(N)N [MD015, PK1 PYR(Z)2], the “EC50 Duck/MN/1525/81” value (Duck/MN/1525/81) is reported as 0.4 ng/mL (≈ 0.343 nM).

In the case of CC(=O)N[C@H]1[C@H]([C@H](O)[C@H](O)CO)OC(C(=O)O)=C[C@@H]1NC(=N)N [Zanarnivir], the Survivors/Total [3] is reported as 0/5.

With CC(=O)N[C@H]1[C@H]([C@H](OC(=O)NCCCCCCCCNC(=O)[C@@H]2C[C@H](C(=O)NCCCCCCCCNC(=O)O[C@@H]([C@@H]3OC(C(=O)O)=C[C@H](N=C(N)N)[C@H]3NC(C)=O)[C@H](O)CO)C[C@H](C(=O)N[C@@H](CC(=O)NCS(=O)(=O)O)C(=O)NCS(=O)(=O)O)C2)[C@H](O)CO)OC(C(=O)O)=C[C@@H]1N=C(N)N [MD154, CHTCA(Z0)2-L-Asp(NHCH2SO3H)2] the Mice survivors/total [1] was 10/10 and 4/10, the Mice survivors/total (A/Duck/MN/1525/81 (H5N1)) was 10/10 and 9/10 and 6/10 and the Mice survivors/total (B/Sichuan/379/99 (FluB)) was 10/10 and 9/10. The “EC50 Duck/MN/1525/81” value (Duck/MN/1525/81) was <0.13 ng/mL.

In the case of CC(=O)N[C@H]1[C@H]([C@H](OC(=O)NCCCCNC(=O)c2cc(C(=O)NCCCCNC(=O)O[C@@H]([C@@H]3OC(C(=O)O)=C[C@H](N=C(N)N)[C@H]3NC(C)=O)[C@H](O)CO)c(C(=O)N[C@H](CC(=O)NCS(=O)(=O)O)C(=O)NCS(=O)(=O)O)cc2C(=O)N[C@H](CC(=O)NCS(=O)(=O)O)C(=O)NCS(=O)(=O)O)[C@H](O)CO)OC(C(=O)O)=C[C@@H]1N=C(N)N [MD219, PK2 PYR(Zb)2[(D-Asp)(NHCH2SO3H)2]2], the “EC50 Duck/MN/1525/81” value (Duck/MN/1525/81) is reported as 0.5 ng/mL (≈ 0.292 nM).

In the case of CC(=O)N[C@H]1[C@H]([C@H](OC(=O)NCCCCCCNC(=O)c2cc(C(=O)NCCCCCCNC(=O)O[C@@H]([C@@H]3OC(C(=O)O)=C[C@H](N=C(N)N)[C@H]3NC(C)=O)[C@H](O)CO)c(C(=O)O)cc2C(=O)O)[C@H](O)CO)OC(C(=O)O)=C[C@@H]1N=C(N)N [MD016, PK2 PYR(Z)2], the “EC50 Duck/MN/1525/81” value (Duck/MN/1525/81) is reported as 0.6 ng/mL (≈ 0.514 nM).

With CC(=O)N[C@H]1[C@H]([C@H](OC(=O)NCCCCCNC(=O)[C@@H]2C[C@H](C(=O)NCCCCCNC(=O)O[C@@H]([C@@H]3OC(C(=O)O)=C[C@H](N=C(N)N)[C@H]3NC(C)=O)[C@H](O)CO)C[C@H](C(=O)N[C@@H](CC(=O)O)C(=O)O)C2)[C@H](O)CO)OC(C(=O)O)=C[C@@H]1N=C(N)N [MD242, CHTCA(Zp)2-L-Asp] the “EC50 Duck/MN/1525/81” value (Duck/MN/1525/81) was 0.84 ng/mL (≈ 0.691 nM).

≈ marks a conversion by molar mass, not a printed value. Where “and” joins values, the source holds several entries; their conditions need not be identical. Equal values may be shown once. Read-outs that look alike come from different tables or passages of the source.
